Measurements reported in patent publication US11370770B2, “3-arylindazoles as selective MEK4 inhibitors” (priority 2019, dated 2022).

Tested on: PC3M cells
Assay: Cell viability, trypan blue exclusion
Assay type: cell-based
Conditions: PC3M cells treated for 3 days

Fc1ccc2c(-c3ccc4c(c3)OCO4)n[nH]c2c1 [Compound 6ee, 3-(2H-1,3-benzodioxol-5-yl)-6-fluoro-2H-indazole]
toxicity, proliferation and viability: less toxicity

O=C(O)c1ccc(-c2n[nH]c3cc(F)ccc23)cc1 [Compound 6ff, 4-(6-fluoro-2H-indazol-3-yl)benzoic Acid]
toxicity, proliferation and viability: less toxicity
